# Data from PubChem BioAssay AID488890 (Southern Research Specialized Biocontainment Screening …, 2010).
# The list shows a part of the results. Records with an inconclusive call do not appear. No rule for the calls is given here.
# Experiment: growth inhibition of non-replicating M. tuberculosis (AID 488890);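 also: plate controls were DMSO cells for no effect and high antibiotic wells for full effect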
# Conditions: Mycobacterium tuberculosis non-replicating, at 25 µM, stronger effect = higher value
row,Compound,inhibition
1,Cc1cc(=O)[nH]c(N[N+](=O)[O-])n1,2.2%
2,O=C(OC1CN2CCC1CC2)C12CC3CC(CC(C3)C1)C2 (configuration not stated),11.5%
3,Cc1c2c(nc3ccccc13)SC(C(Cl)Cl)C2 (configuration not stated),68.7%
4,COc1cc(I)ccc1[As](=O)(O)O,-8.25%
5,COc1ccc2nc(NP(=O)(c3ccccc3)c3ccccc3)sc2c1,13.9%
6,COc1ccc(N/C(=N/P(=O)(N2CCOCC2)N2CCOCC2)N2CCOCC2)cc1,-5.87%
7,COc1cc(C(=O)NCC2(N3CCOCC3)CCCCC2)ccc1OCC(C)C,5.08%
8,O=[As](O)(c1ccc(O)cc1)c1ccccc1O,55.7%
9,C[As](=O)(O)c1cccc(C(=O)O)c1,-14%
10,Cc1ccc2nc3c(c(C)c2c1)CC(C(Cl)Cl)S3 (configuration not stated),46.3%
11,Cc1ccc(OP(=O)(Nc2ccc([N+](=O)[O-])cn2)Oc2ccc(C)cc2)cc1,5.25%
12,CC(C)c1ccc(OP(=O)(Nc2ccccn2)Oc2ccccc2F)cc1 (configuration not stated),6.18%
13,ClCCSc1nnc(-c2cccnc2)o1,74.9%
14,CC(C)NC(=O)NP(=O)(Oc1ccccc1)Oc1ccccc1,2.5%
15,CCOC(=O)Nc1ccc([As](=O)(O)O)c(O)c1,64.4%
16,CCOC(=O)Nc1cccc([As](=O)(O)O)c1,-5.51%
17,O=[N+]([O-])c1ccc(Nc2ccc(Oc3ccc([N+](=O)[O-])cc3[N+](=O)[O-])cc2)c([N+](=O)[O-])c1,10.6%
18,Cc1cc(SC(NC=O)C(Cl)(Cl)Cl)ncn1 (configuration not stated),30.9%
19,O=P(Nc1ccccn1)(c1cccc2ccccc12)c1cccc2ccccc12,39.5%
20,COP1(=S)c2c(C)nn(CCC#N)c2N=C(c2ccc(F)cc2)N1C (configuration not stated),-4.21%
21,O=C(Nc1ccncc1[N+](=O)[O-])c1ccc([N+](=O)[O-])cc1[N+](=O)[O-],75.5%
22,O=C(COc1ccccc1)OC1CN2CCC1CC2 (configuration not stated),-2.73%
23,CCOC(=O)c1ccc(NC(=O)C(C)(CCl)SC)cc1 (configuration not stated),8.66%
24,O=C(OC1CN2CCC1CC2)c1cccc([N+](=O)[O-])c1 (configuration not stated),-9.68%
25,CCC(C)N(CC(C)C)C(=S)SC(NC(C)=O)C(Cl)(Cl)Cl (configuration not stated),63.8%
26,CCOP(=O)(Nc1ccc(C)cn1)OCC,29.9%

row,Compound,inhibition
1,CN(CCCl)Cc1cc(Cl)c(NC2=NCCN2)c(Cl)c1,19%
2,CCOP(=O)(NC(=NC(C)c1ccccc1)NC(C)c1ccccc1)OCC (configuration not stated),7.7%
3,O=P1(Nc2ccccn2)COc2ccccc2OC1,2.29%
4,CC(C)(C)C(=O)NC(Sc1ncccn1)C(Cl)(Cl)Cl (configuration not stated),13%
5,Clc1n[nH]nc1-c1nn[nH][15n]1,0.21%
6,COc1ccccc1CNC(=O)COC(=O)C(O)(c1ccccc1)c1ccccc1,-14.4%
7,CC1(CBr)Cn2c(nc3ccccc3c2=O)S1 (configuration not stated),-1.45%
8,O=[As](O)(c1ccccc1Br)c1ccccc1Br,-14.8%
9,CN(C(=O)Cc1ccc(Cl)c(Cl)c1)[C@@H]1CCCC[C@H]1N1CCCC1,13.3%
10,CC(C)/C=N\N=C(\N)N[N+](=O)[O-],-12.2%
11,Cc1ccc(C(=O)OC2CN3CCC2CC3)cc1 (configuration not stated),2.45%
12,CC1CCC(C(C)C)C(OP(=O)(Nc2ccccn2)c2ccccc2)C1 (configuration not stated),41.9%
13,Cc1nn(-c2ccccc2)c2c1P(=O)(N1CCOCC1)N(C)C(c1ccccc1)=N2 (configuration not stated),-0.13%
14,O=C(/C=C/c1ccccc1)OC1CN2CCC1CC2 (configuration not stated),10.1%
15,CN(C)C1(CNC(=O)c2ccc(S(C)(=O)=O)cc2)CCCCC1,-6.38%
16,O=P1(Nc2ncccn2)COc2ccccc2OC1,5.49%
17,Cc1ccc(OCC(=O)OC2CN3CCC2CC3)cc1 (configuration not stated),-10%
18,O=[As](O)(c1cccs1)c1cccs1,-4.29%
19,NS(=O)(=O)c1cccc(NC(=O)COC(=O)C(O)(c2ccccc2)c2ccccc2)c1,-2.53%
20,O=P1(Nc2ccc(Br)cn2)COc2ccccc2OC1,0.67%
21,Nc1cccc([As](=O)(O)c2ccccc2)c1,3.38%
22,CS(=O)(=O)c1cc([N+](=O)[O-])c2no[n+]([O-])c2c1,-3.79%
23,O=P(Nc1nccs1)(Oc1ccccc1)Oc1ccccc1,-5.53%
24,CCOP1(=S)c2c(C)nn(CCC#N)c2N=C(c2ccccc2F)N1C (configuration not stated),-8.07%
25,O=C(O)COc1ccc([As](=O)(O)O)cc1[N+](=O)[O-],-5.62%
26,Nc1ccccc1[As](=O)(O)c1ccccc1,1.52%

row,Compound,inhibition
1,NC(=O)Nc1ccc([As](=O)(O)O)cc1,-1.82%
2,CN(C(=O)Cc1ccc(Cl)c(Cl)c1)[C@H]1CC[C@@]2(CCCO2)C[C@@H]1N1CCCC1,3.15%
3,CN(C(=O)Cc1ccccc1)[C@@H]1CC[C@]2(CCCO2)C[C@H]1N1CCCC1,1.88%
4,CCOP1(=S)c2c(C)nn(CCC#N)c2N=C(c2ccc(F)cc2)N1C (configuration not stated),4.8%
5,N#CCCN(C(=O)COC(=O)C(O)(c1ccccc1)c1ccccc1)c1ccc(F)cc1,-12.8%
6,CS(=O)(=O)c1ccc(Cl)c(NC(=O)COC(=O)C(O)(c2ccccc2)c2ccccc2)c1,3.42%
7,O=[As](O)(O)c1cccnc1,-8.65%
8,COc1cc(C(=O)NCC2(N3CCOCC3)CCCCC2)cc(Cl)c1OC(C)C,10.9%
9,O=C(OC1CN2CCC1CC2)c1ccc(Cl)cc1 (configuration not stated),50%
10,Cc1cccc(OCC(=O)OC2CN3CCC2CC3)c1 (configuration not stated),-7.54%
11,O=[As](O)(c1cccc(O)c1)c1cccc(O)c1,8.13%
12,CCCOP(=S)(Nc1nc(N)cc(=O)[nH]1)OCCC,-0.19%
13,Nc1cccc2c([As](=O)(O)O)cccc12,0.63%
14,CCOP(=O)(Nc1cccc2ccccc12)OCC,-15.2%
15,COc1cc(C2NCCC3(OCCO3)C2(C)C)cc(OC)c1OC (configuration not stated),13.8%
16,CCOc1ccc(C2=NCC(CBr)S2)cc1 (configuration not stated),9.8%
17,O=P1(Nc2nc3ccc(Cl)cc3s2)COc2ccccc2O1 (configuration not stated),7.04%
18,CC(C)(C)C(=O)NC(Sc1ccccc1)C(Cl)(Cl)Cl (configuration not stated),20.4%
19,CC(=O)c1ccc(N2CC2c2ccncc2)cc1 (configuration not stated),1.28%
20,C[C@H]1OP(=O)(Oc2ccccc2)C[C@@H]2O[C@@H]21 (some centres not stated),-14.7%
21,C[C@@H]1C=CCP(=O)(Oc2ccccc2)O1 (some centres not stated),2.78%
22,Cc1ccccc1CN(C)C(=O)COC(=O)C(O)(c1ccccc1)c1ccccc1,-2.31%
23,CC(=O)Nc1ccc(Oc2c([N+](=O)[O-])cc([N+](=O)[O-])cc2[N+](=O)[O-])cc1,5.39%
24,CC(=O)Nc1ccc([As](=O)(O)O)c(O)c1,-6.42%
25,O=C(NC1CCS(=O)(=O)C1)NP(=S)(Oc1ccccc1)Oc1ccccc1 (configuration not stated),4.42%
